Here are results for one molecule from patent publication US20240091310A1, “COMPOSITIONS AND METHODS USEFUL FOR THE PREVENTION AND/OR TREATMENT OF DISEASE IN MAMMALS” (VIRO-GEN (PTY) LTD, priority 2020, published 2024).

The series can be described thus: Levels of Ksp37 before and 4 hrs after HIV infection, LTNPs vs Progressors. More on the design: species or system human.

B1: Ksp37: Killer-specific secretory protein of 37 kDa, 223 amino acids, produced by cytotoxic lymphocytes; accession AB021123 (protein, UniProt Q9BYJ0 20-223, looked up)
Fibroblast growth …: QAPRQKQGSTGEEFHFQTGGRDSCTMRPSSLGQGAGEVWLRVDCRNTDQTYWCEYRGQPSMCQAFAADPKPYWNQALQELRRLHHACQGAPVLRPSVCREAGPQAHMQQVTSSLKGSPEPNQQPEAGTPSLRPKATVKLTEATQLGKDSMEELGKAKPTTRPTAKPTQPGPRPGGNEEAKKKAWEHCWKPFQALCAFLISFFRG
B1: for the setting “LTNPs”, the “Initial Ksp37 levels before HIV infection” value was determined as 441 ± 235 ng/mL and the “Ksp37 levels 4 hrs after HIV infection” value came out at 800 ± 529 ng/mL. Where the note is “Progressors”, the “Initial Ksp37 levels before HIV infection” value was 380 ± 200 ng/mL and the “Ksp37 levels 4 hrs after HIV infection” value was 246 ± 127 ng/mL.
